Anti-infective test results gathered from many reports (values: NIAID ChemDB through PubChem).

All rows: toxicity to cultured cells; cells: CEM; endpoint: CC50

Neighbouring rows are from separate reports. CCn: concentration that lowers growth or viability of the cells by n%.

structure,result
CCCCOC(=S)Nc1ccc(Cl)c(C(=O)OC(C)C)c1,21.22 µM
COC(=O)Oc1ccc(NC(=O)C2=C(C)OCCS2)cc1C(=O)OC(C)C,18 µg/mL
CC(C)OC(=O)c1cc(NC(=S)OC(C)(C)C)ccc1Cl,87.92 µM
CC(=O)/C=C(/C)OCCCn1c(=O)c(C)cn([C@@H]2O[C@H](CO[Si](C)(C)C(C)(C)C)C3(OS(=O)(=O)C=C3N)[C@H]2O[Si](C)(C)C(C)(C)C)c1=O,≥130 µM
O=C(O)[C@@H]1CCCCN1C(=O)c1ccccc1SSc1ccccc1C(=O)N1CCCC[C@H]1C(=O)O,>100 µM
C=CCO/N=C/c1cc(NC(=S)c2ccoc2C)ccc1Cl,>16 µM
C=C(C)[C@@H]1CC[C@]2(C(=O)NCCCCCCCC(=O)Nc3ccc(C(=O)O)cc3)CC[C@]3(C)[C@H](CC[C@@H]4[C@@]5(C)CC[C@H](O)C(C)(C)[C@@H]5CC[C@]43C)[C@@H]12,0.98 µM
CC(=O)C(CCCCCCCCCn1c(=O)c(C)cn([C@@H]2O[C@H](CO[Si](C)(C)C(C)(C)C)C3(OS(=O)(=O)C=C3N)[C@H]2O[Si](C)(C)C(C)(C)C)c1=O)C(C)=O,153 µM
CCCC[C@H](NC(=O)c1ccccc1SSc1ccccc1C(=O)N[C@@H](CCCC)C(=O)O)C(=O)O,51 µM
CC1=C(C(=O)Nc2ccc(Cl)c(C(=O)OC(C)C)c2)SCCO1,8.8 µg/mL
c1ccc(C2=NOC(c3ccccc3)N2C23CC4CC(CC(C4)C2)C3)cc1,>200 µM
CC(C)OC(=S)Nc1ccc(Cl)c(C(=O)OCC2CC2)c1,19.22 µM
C=C(C)[C@@H]1CC[C@]2(C(=O)NCC(=O)NCCCCCCCC(=O)O)CC[C@]3(C)[C@H](CC[C@@H]4[C@@]5(C)CC[C@H](O)C(C)(C)[C@@H]5CC[C@]43C)[C@@H]12,>3 µM
CCOC(=O)C(C)Oc1cc(NC(=S)OC(C)C)ccc1Cl,205 µM
COCC1=C(C(=O)Nc2ccc(Cl)c(C(=O)OC(C)C)c2)SCCO1,45 µg/mL
CCCSC(=Nc1ccc(Cl)c(C(=O)OC(C)C)c1)OC(C)C,131 µM
Cc1cn([C@H]2C[C@H](O)[C@@H](CO)O2)c(=O)n(CCF)c1=O,349 µg/mL
Cc1occc1C(=S)Nc1ccc(Cl)c(/C=N/OCc2ccccc2)c1,>7.1 µM
C=CCSc1cc(NC(=S)OC(C)C)ccc1Cl,66.92 µM
Cc1cn([C@@H]2O[C@H](CO[Si](C)(C)C(C)(C)C)C3(OS(=O)(=O)C=C3N)[C@H]2O[Si](C)(C)C(C)(C)C)c(=O)n(CCCO/C(=C\C(=O)c2ccccc2)c2ccccc2)c1=O,31 µM
O=C(N[C@@H](Cc1ccccc1)C(=O)O)c1ccccc1SSc1ccccc1C(=O)N[C@@H](Cc1ccccc1)C(=O)O,>100 µM
Cc1cn([C@@H]2O[C@H](CO)[C@@H](O)[C@@H]2O)c(=O)n(CCF)c1=O,>500 µg/mL
N#Cc1ccc(C2ON=C(c3ccccc3)N2C23CC4CC(CC(C4)C2)C3)cc1,140 µM
Cc1occc1C(=S)Nc1ccc(Cl)c(/C=N/OC2CCCC2)c1,>14 µM
C=CCOc1cc(NC(=S)c2sccc2C)ccc1C#N,11 µM
C=C(C)[C@@H]1CC[C@]2(C(=O)NCCCCCCCC(=O)N[C@@H](CC(=O)O)C(=O)O)CC[C@]3(C)[C@H](CC[C@@H]4[C@@]5(C)CC[C@H](O)C(C)(C)[C@@H]5CC[C@]43C)[C@@H]12,>3 µM
Cc1cn([C@H]2C[C@H](F)[C@@H](CO)O2)c(=O)n(C)c1=O,>500 µg/mL
Fc1cccc(C2ON=C(c3ccccc3)N2C23CC4CC(CC(C4)C2)C3)c1,>200 µM
CC(C)(C)OC(=O)c1cc(NC(=S)OC(C)(C)C)ccc1Cl,122.1 µM
CN(C)c1ccc(C2ON=C(c3ccccc3)N2C23CC4CC(CC(C4)C2)C3)cc1,22 µM
CC(C)OC(=O)c1cc(NC(=S)N(C)C(C)C)ccc1Cl,>303.2 µM
CCC1=C(C(=O)Nc2ccc(Cl)c(C(=O)OCC(C)C)c2)SCCO1,24 µg/mL
C#CCO/N=C/c1cc(NC(=S)c2ccoc2C)ccc1Cl,16 µM
COc1ccc(NC(=S)OC(C)C)cc1CC(=O)OC(C)C,23.66 µM
CN1CCN(C(=O)c2ccc3c(=O)c4ccccc4[nH]c3c2)CC1,16 µg/mL
CC(C)OC(=S)Nc1ccc(Cl)c(C(=O)OC(C(C)C)C(C)C)c1,20.43 µM
O=C(O)CCCCCCNC(=O)c1ccccc1SSc1ccccc1C(=O)NCCCCCCC(=O)O,44 µM
Cc1occc1C(=S)Nc1ccc(Cl)c(/C=N/OCC(=O)OC(C)(C)C)c1,>24 µM
C=C(C)[C@@H]1CC[C@]2(C(=O)NCCCCCCCC(=O)NC(F)CC(=O)O)CC[C@]3(C)[C@H](CC[C@@H]4[C@@]5(C)CC[C@H](O)C(C)(C)[C@@H]5CC[C@]43C)[C@@H]12,>3 µM
CCCOC(=O)c1cc(NC(=S)OC(C)C)ccc1Cl,34.83 µM
CC(=O)/C=C(\C)OCCCCCCn1c(=O)c(C)cn([C@@H]2O[C@H](CO[Si](C)(C)C(C)(C)C)C3(OS(=O)(=O)C=C3N)[C@H]2O[Si](C)(C)C(C)(C)C)c1=O,15 µM
O=C(O)C[C@H](Cc1ccccc1)NC(=O)c1ccccc1SSc1ccccc1C(=O)N[C@H](CC(=O)O)Cc1ccccc1,67 µM
C=CCOc1cc(NC(=S)OC(C)C)ccc1Cl,15.4 µM
O=[N+]([O-])c1ccc(C2ON=C(c3ccccc3)N2C23CC4CC(CC(C4)C2)C3)cc1,170 µM
C=C(C)[C@@H]1CC[C@]2(C(=O)NCCCCCCCC(=O)N[C@H](CO)C(=O)O)CC[C@]3(C)[C@H](CC[C@@H]4[C@@]5(C)CC[C@H](O)C(C)(C)[C@@H]5CC[C@]43C)[C@@H]12,>3 µM
CC1=C(C(=O)Nc2cc(C(=O)OC(C)C)c(Cl)cc2F)SCCO1,>100 µg/mL
Cc1ccsc1C(=O)Nc1ccc(Cl)c(/C=N/OC(C)(C)C)c1,39 µM

A second listing of 6 rows from above:

structure	result
C=CCSc1cc(NC(=S)OC(C)C)ccc1Cl	66.92 µM
C=C(C)[C@@H]1CC[C@]2(C(=O)NCCCCCCCC(=O)N[C@@H](CC(=O)O)C(=O)O)CC[C@]3(C)[C@H](CC[C@@H]4[C@@]5(C)CC[C@H](O)C(C)(C)[C@@H]5CC[C@]43C)[C@@H]12	>3 µM
CCOC(=O)C(C)Oc1cc(NC(=S)OC(C)C)ccc1Cl	205 µM
Cc1cn([C@@H]2O[C@H](CO[Si](C)(C)C(C)(C)C)C3(OS(=O)(=O)C=C3N)[C@H]2O[Si](C)(C)C(C)(C)C)c(=O)n(CCCO/C(=C\C(=O)c2ccccc2)c2ccccc2)c1=O	31 µM
Cc1occc1C(=S)Nc1ccc(Cl)c(/C=N/OCc2ccccc2)c1	>7.1 µM
C=C(C)[C@@H]1CC[C@]2(C(=O)NCCCCCCCC(=O)NC(F)CC(=O)O)CC[C@]3(C)[C@H](CC[C@@H]4[C@@]5(C)CC[C@H](O)C(C)(C)[C@@H]5CC[C@]43C)[C@@H]12	>3 µM